Results of unrelated studies side by side (data: NIAID ChemDB).

Common to all: growth or infection tests; species: HIV-1; read-out: EC50

Lines come from different laboratories, so protocols vary. ECn: concentration that inhibits the pathogen or its effect by n%.

{"structure": "CC1C(=S)Nc2ccc(Cl)cc2S(=O)(=O)N1Cc1c(F)cccc1F", "cells": "MT-4", "read by": "cytopathic effect / MTT", "value": "9 µM"}
{"structure": "CC(C)C1=C2[C@H]3CC[C@@H]4[C@@]5(C)CC[C@H](OC(=O)[C@H]6C[C@@H](C(=O)O)C6(C)C)C(C)(C)[C@@H]5CC[C@@]4(C)[C@]3(C)CC[C@@]2(CC(=O)N[C@@H](CO)CNC(=O)c2ccc(Cl)cc2)CC1=O", "cells": "MT-2", "strain or isolate": "92HT599", "read by": "p24 / ELISA", "value": "<1 µM"}
{"structure": "C#Cc1cn([C@H]2C[C@H](O)[C@@H](CO)O2)c(=O)[nH]c1=O", "cells": "PBMC", "strain or isolate": "LAI", "value": "0.61 µM"}
{"structure": "O=CC(OC(=O)c1cc(O)c(O)c(O)c1)C(OC(=O)c1cc(O)c(O)c(O)c1)C1OC(=O)c2cc(Oc3c(C(=O)OC4OC5COC(=O)c6cc(O)c(O)c(O)c6-c6c(cc(O)c(O)c6O)C(=O)OC5C(OC(=O)c5cc(O)c(O)c(O)c5)C4OC(=O)c4cc(O)c(O)c(O)c4)cc(O)c(O)c3O)c(O)c(O)c2-c2c(cc(O)c(O)c2O)C(=O)OCC1O", "cells": "MT-4", "strain or isolate": "IIIB", "read by": "cytopathic effect / MTT", "value": ">50 µg/mL"}
{"structure": "CC(C)C1=C2[C@H]3CC[C@@H]4[C@@]5(C)CC[C@H](OC(=O)[C@H]6C[C@@H](C(=O)O)C6(C)C)C(C)(C)[C@@H]5CC[C@@]4(C)[C@]3(C)CC[C@@]2(CCNCc2ccc(Cl)cc2OCCN2CCCC2)CC1=O", "cells": "MT-2", "strain or isolate": "92HT599", "read by": "p24 / ELISA", "value": "<1 µM"}
{"structure": "O=C(OC[C@H]1O[C@@H](O)[C@@H]2OC(=O)c3cc(O)c(O)c(O)c3-c3c(cc(O)c(O)c3O)C(=O)O[C@H]2[C@@H]1OC(=O)c1cc(O)c(O)c(O)c1Oc1cc2c(c(O)c1O)-c1c(cc(O)c(O)c1O)C(=O)O[C@@H]1[C@@H](OC2=O)[C@H](OC(=O)c2cc(O)c(O)c(O)c2)O[C@@H]2COC(=O)c3cc(O)c(O)c(O)c3-c3c(cc(O)c(O)c3O)C(=O)O[C@@H]12)c1cc(O)c(OC(=O)c2cc(O)c(O)c(O)c2)c(O)c1", "cells": "MT-4", "strain or isolate": "IIIB", "read by": "cytopathic effect / MTT", "value": "2.4 µg/mL"}
{"structure": "Cc1ccc(-c2nc3ccc(CNC[C@H](O)[C@@]45CC[C@]6(C)[C@H](CC[C@@H]7[C@@]8(C)CC[C@H](OC(=O)[C@H]9C[C@@H](C(=O)O)C9(C)C)C(C)(C)[C@@H]8CC[C@]76C)C4=C(C(C)C)C(=O)C5)cc3[nH]2)cn1", "cells": "MT-2", "strain or isolate": "92HT599", "read by": "p24 / ELISA", "value": "<1 µM"}
{"structure": "O=C(OCC1OC(OC(=O)c2cc(O)c(O)c(O)c2)C2OC(=O)c3cc(O)c(O)c(O)c3-c3c(cc(O)c(O)c3O)C(=O)OC2C1OC(=O)c1cc(O)c(O)c(O)c1Oc1cc2c(c(O)c1O)-c1c(cc(O)c(O)c1O)C(=O)OC1C(COC2=O)OC(OC(=O)c2cc(O)c(O)c(O)c2)C2OC(=O)c3cc(O)c(O)c(O)c3-c3c(cc(O)c(O)c3O)C(=O)OC12)c1cc(O)c(O)c(O)c1", "cells": "MT-4", "strain or isolate": "IIIB", "read by": "cytopathic effect / MTT", "value": "4.5 µg/mL"}
{"structure": "C#Cc1cnc(OC)nc1OC", "cells": "PBMC", "strain or isolate": "LAI", "value": "65.2 µM"}
{"structure": "O=C(O[C@@H]1[C@H](c2c(O)cc(O)c3c2O[C@H](c2ccc(O)c(O)c2)[C@H](OC(=O)c2cc(O)c(O)c(O)c2)C3)c2c(O)cc(O)c([C@H]3c4c(O)cc(O)cc4O[C@H](c4ccc(O)c(O)c4)[C@@H]3OC(=O)c3cc(O)c(O)c(O)c3)c2O[C@@H]1c1ccc(O)c(O)c1)c1cc(O)c(O)c(O)c1", "cells": "MT-4", "strain or isolate": "IIIB", "read by": "cytopathic effect / MTT", "value": ">100 µg/mL"}
{"structure": "O=c1oc2c(O)c(O)cc3c(=O)oc4c(O)c(O)cc1c4c23", "cells": "TZM-bl", "strain or isolate": "JR-CSF", "read by": "luciferase", "setting": "48 h", "value": "34.11 µM"}
{"structure": "Cc1nc2ccc(C(=O)NC(C)(C)CNC(=O)C[C@@]34CC[C@]5(C)[C@H](CC[C@@H]6[C@@]7(C)CC[C@H](OC(=O)[C@H]8C[C@@H](C(=O)O)C8(C)C)C(C)(C)[C@@H]7CC[C@]65C)C3=C(C(C)C)C(=O)C4)cc2[nH]1", "cells": "MT-2", "strain or isolate": "92HT599", "read by": "p24 / ELISA", "value": "<1 µM"}
{"structure": "O=C1OCC(O)C(C2OC(=O)c3cc(O)c(O)c(O)c3-c3c(O)c(O)c(O)c4c3C(=O)OC2C4c2c(O)cc(O)c3c2OC(c2ccc(O)c(O)c2)C(O)C3)OC(=O)c2cc(O)c(O)c(O)c2-c2c1cc(O)c(O)c2O", "cells": "MT-4", "strain or isolate": "IIIB", "read by": "cytopathic effect / MTT", "value": "7.9 µg/mL"}
{"structure": "CC(C)C1=C2[C@H]3CC[C@@H]4[C@@]5(C)CC[C@H](OC(=O)[C@H]6C[C@@H](C(=O)O)C6(C)C)C(C)(C)[C@@H]5CC[C@@]4(C)[C@]3(C)CC[C@@]2(CCNC(=O)C(C)(C)C)CC1=O", "cells": "MT-2", "strain or isolate": "92HT599", "read by": "p24 / ELISA", "value": "<1 µM"}
{"structure": "O=C(OC1OC2COC(=O)c3cc(O)c(O)c(O)c3-c3c(cc(O)c(O)c3O)C(=O)OC2C(OC(=O)c2cc(O)c(O)c(O)c2)C1OC(=O)c1cc(O)c(O)c(O)c1)c1cc(O)c(O)c(O)c1", "cells": "MT-4", "strain or isolate": "IIIB", "read by": "cytopathic effect / MTT", "value": ">50 µg/mL"}
{"structure": "CC1C(=O)Nc2ccc(Cl)cc2S(=O)(=O)N1CC=Cc1ccccc1", "cells": "MT-4", "read by": "cytopathic effect / MTT", "value": "10 µM"}
{"structure": "C#Cc1cnc(OC(=O)c2ccccc2)nc1OC(=O)c1ccccc1", "cells": "PBMC", "strain or isolate": "LAI", "value": "1.3 µM"}
{"structure": "CCOC(=O)C(C)N(CC)S(=O)(=O)c1cc(Cl)ccc1N", "cells": "MT-4", "read by": "cytopathic effect / MTT", "value": ">200 µM"}
{"structure": "O=C1O[C@H]2[C@@H]3OC(=O)c4cc(O)c(O)c5c4[C@@H]4C(=CC(=O)[C@](O)(O5)C4(O)O)C(=O)OC[C@H]2O[C@@H](OC(=O)c2cc(O)c(O)c(O)c2)C3OC(=O)c2cc(O)c(O)c3c2[C@@H]2C1=CC(=O)[C@](O)(O3)C2(O)O", "cells": "MT-4", "strain or isolate": "IIIB", "read by": "cytopathic effect / MTT", "value": ">100 µg/mL"}
{"structure": "CC(C)C1=C2[C@H]3CC[C@@H]4[C@@]5(C)CC[C@H](OC(=O)[C@H]6C[C@@H](C(=O)O)C6(C)C)C(C)(C)[C@@H]5CC[C@@]4(C)[C@]3(C)CC[C@@]2(CCNC(=O)c2ccc(N3CCC(N4CCOCC4)CC3)cc2)CC1=O", "cells": "MT-2", "strain or isolate": "92HT599", "read by": "p24 / ELISA", "value": "<1 µM"}
{"structure": "CC1C(=S)Nc2ccc(Cl)cc2S(=O)(=O)N1CC1CC1", "cells": "MT-4", "read by": "cytopathic effect / MTT", "value": "10 µM"}

The first 2 rows once more:

{"structure": "CC1C(=S)Nc2ccc(Cl)cc2S(=O)(=O)N1Cc1c(F)cccc1F", "cells": "MT-4", "read by": "cytopathic effect / MTT", "value": "9 µM"}
{"structure": "CC(C)C1=C2[C@H]3CC[C@@H]4[C@@]5(C)CC[C@H](OC(=O)[C@H]6C[C@@H](C(=O)O)C6(C)C)C(C)(C)[C@@H]5CC[C@@]4(C)[C@]3(C)CC[C@@]2(CC(=O)N[C@@H](CO)CNC(=O)c2ccc(Cl)cc2)CC1=O", "cells": "MT-2", "strain or isolate": "92HT599", "read by": "p24 / ELISA", "value": "<1 µM"}